Source: PubChem BioAssay AID1224833 (University of Georgia, 2016)

Screen: 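Host factors restraining rotavirus as candidate antiviral genes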 (primary screen)
Cells: monkey MA104 kidney cells
Reagents: siRNA pool against human genes, 50 nM
Timing: 48 h knock-down before infection; read 24 h after infection
Conditions: infection with rotavirus strain RV3 two days after transfection; infectious dose for this stage not given
Read-out: 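z-score of rotavirus antigen signal per well, from a fluorescent immunoassay, relative to non-targeting control wells on the same plate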
Direction: z-score vs non-targeting control: higher = more rotavirus replication than with non-targeting control
Active means: In these data the active calls have z-score vs non-targeting control at about -1 or lower, or at about 1 or higher
Calls: active = z-score beyond 1 either way; inactive = z-score within 1 of zero
This is an unselected part of about 12,000 reagents tested. About 5,600 of all reagents (46%) count as active. 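Active calls cover z-scores past 1 in both directions, so they include lowered as well as raised rotavirus replication.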

no.	gene	z-score vs non-targeting control	Outcome
1	ZNF442 (zinc finger protein 442)	-1.09	active
2	TMED4 (transmembrane p24 trafficking protein 4)	2.16	active
3	SACK1G (scaffolding CK1 anchoring protein G)	0.617	inactive
4	UBXN10 (UBX domain protein 10)	2.58	active
5	KIRREL3 (kirre like nephrin family adhesion molecule 3)	1.12	active
6	LCE2B (late cornified envelope 2B)	0.974	inactive
7	ARHGEF18 (Rho/Rac guanine nucleotide exchange factor 18)	-0.682	inactive
8	MECP2 (methyl-CpG binding protein 2)	1.03	active
9	BORCS5 (BLOC-1 related complex subunit 5)	0.822	inactive
10	GLIPR1L1 (GLIPR1 like 1)	-0.999	inactive
11	S100A9 (S100 calcium binding protein A9)	-0.784	inactive
12	NADK2 (NAD kinase 2, mitochondrial)	0.784	inactive
13	PBOV1 (prostate and breast cancer overexpressed 1)	-0.862	inactive
14	DZANK1 (double zinc ribbon and ankyrin repeat domains 1)	1.02	active
15	HMGN3 (high mobility group nucleosomal binding domain 3)	1.41	active
16	ARHGEF10L (Rho guanine nucleotide exchange factor 10 like)	2.33	active
17	OSTF1 (osteoclast stimulating factor 1)	1.8	active
18	H4C16 (H4 histone 16)	-0.438	inactive
19	ALG12 (ALG12 alpha-1,6-mannosyltransferase)	-1.01	active
20	FOXI2 (forkhead box I2)	2.94	active
21	GNAT1 (G protein subunit alpha transducin 1)	-1.75	active
22	WFDC8 (WAP four-disulfide core domain 8)	-0.591	inactive
23	CTPS1 (CTP synthase 1)	-0.642	inactive
24	ZDHHC1 (zDHHC palmitoyltransferase 1)	0.491	inactive
25	UPF3A (UPF3A regulator of nonsense mediated mRNA decay)	0.496	inactive
26	STX8 (syntaxin 8)	-0.941	inactive
27	ZNF276 (zinc finger protein 276)	0.909	inactive
28	CPLX3 (complexin 3)	-0.141	inactive
29	PRPF39 (pre-mRNA processing factor 39)	-3.09	active
30	SPATS1 (spermatogenesis associated serine rich 1)	-1.42	active
31	TMEM100 (transmembrane protein 100)	1.39	active
32	PSG3 (pregnancy specific beta-1-glycoprotein 3)	-0.441	inactive
33	PDE5A (phosphodiesterase 5A)	-0.835	inactive
34	NUDT10 (nudix hydrolase 10)	-1.36	active
35	CHPF2 (chondroitin polymerizing factor 2)	-1.27	active
36	TEX47 (testis expressed 47)	1.16	active
37	NEFH (neurofilament heavy chain)	-2.57	active
38	ARL2BP (ARF like GTPase 2 binding protein)	-0.554	inactive
39	SLC16A6	-1.02	active
40	SPANXC (SPANX family member C)	0.972	inactive
41	SIPA1L2 (signal induced proliferation associated 1 like 2)	-1.46	active
42	CSRP3 (cysteine and glycine rich protein 3)	0.0906	inactive
43	PTGES (prostaglandin E synthase)	-0.646	inactive
44	MCF2 (MCF.2 cell line derived transforming sequence)	-1.01	active
45	SLC25A13	0.795	inactive
46	CCDC68 (coiled-coil domain containing 68)	-2.43	active
47	USP5 (ubiquitin specific peptidase 5)	0.764	inactive
48	SLC17A5	0.643	inactive
49	ANP32D (acidic nuclear phosphoprotein 32 family member D)	-0.0974	inactive
50	TOMM70 (translocase of outer mitochondrial membrane 70)	0.585	inactive
51	AMDHD1 (amidohydrolase domain containing 1)	-0.897	inactive
52	RBM24 (RNA binding motif protein 24)	0.459	inactive
53	GTF2A1 (general transcription factor IIA subunit 1)	-1.56	active
54	TEKT3 (tektin 3)	0.257	inactive
55	CIAO3 (cytosolic iron-sulfur assembly component 3)	-0.677	inactive
56	UBE3D (ubiquitin protein ligase E3D)	1.38	active
57	SLITRK5 (SLIT and NTRK like family member 5)	-0.729	inactive
58	BNIP1 (BCL2 interacting protein 1)	-1.61	active
59	NUDT21 (nudix hydrolase 21)	-2.73	active
60	GPR156 (G protein-coupled receptor 156)	0.633	inactive
61	TMCC3 (transmembrane and coiled-coil domain family 3)	0.76	inactive
62	TM9SF3 (transmembrane 9 superfamily member 3)	0.516	inactive
63	TLNRD1 (talin rod domain containing 1)	2.42	active
64	TMEM141 (transmembrane protein 141)	-0.579	inactive
65	MAMDC4 (MAM domain containing 4)	-2.03	active
66	CSPP1 (centrosome and spindle pole associated protein 1)	-1.12	active
67	CD300A (CD300a molecule)	-0.217	inactive
68	TASOR (transcription activation suppressor)	2.46	active
69	H3C10 (H3 clustered histone 10)	1.1	active
70	RPRD2 (regulation of nuclear pre-mRNA domain containing 2)	-0.186	inactive
71	HMGN4 (high mobility group nucleosomal binding domain 4)	0.303	inactive
72	LDLRAD4 (low density lipoprotein receptor class A domain containing 4)	-1.02	active
73	MTCL3 (MTCL family member 3)	0.447	inactive

Ordered by “z-score vs non-targeting control” (highest first): 17 of the entries above
gene	z-score vs non-targeting control	Outcome
TMEM100 (transmembrane protein 100)	1.39	active
TEX47 (testis expressed 47)	1.16	active
SPANXC (SPANX family member C)	0.972	inactive
CSRP3 (cysteine and glycine rich protein 3)	0.0906	inactive
CPLX3 (complexin 3)	-0.141	inactive
PSG3 (pregnancy specific beta-1-glycoprotein 3)	-0.441	inactive
ARL2BP (ARF like GTPase 2 binding protein)	-0.554	inactive
PTGES (prostaglandin E synthase)	-0.646	inactive
PDE5A (phosphodiesterase 5A)	-0.835	inactive
MCF2 (MCF.2 cell line derived transforming sequence)	-1.01	active
SLC16A6	-1.02	active
CHPF2 (chondroitin polymerizing factor 2)	-1.27	active
NUDT10 (nudix hydrolase 10)	-1.36	active
SPATS1 (spermatogenesis associated serine rich 1)	-1.42	active
SIPA1L2 (signal induced proliferation associated 1 like 2)	-1.46	active
NEFH (neurofilament heavy chain)	-2.57	active
PRPF39 (pre-mRNA processing factor 39)	-3.09	active

Next results follow.
no.	gene	z-score vs non-targeting control	Outcome
74	SYS1 (SYS1 golgi trafficking protein)	-0.516	inactive
75	SESTD1 (SEC14 and spectrin domain containing 1)	-1.1	active
76	SOHLH2	1.58	active
77	OR2F2 (olfactory receptor family 2 subfamily F member 2)	-0.993	inactive
78	RGS8 (regulator of G protein signaling 8)	-0.754	inactive
79	NDUFB11 (NADH:ubiquinone oxidoreductase subunit B11)	-0.678	inactive
80	FARSA (phenylalanyl-tRNA synthetase subunit alpha)	-0.86	inactive
81	SOWAHC (sosondowah ankyrin repeat domain family member C)	-1.9	active
82	FAM13B (family with sequence similarity 13 member B)	1.39	active
83	GIT2 (GIT ArfGAP 2)	-2.7	active
84	HCFC2 (host cell factor C2)	1.76	active
85	PLIN2 (perilipin 2)	1.19	active
86	MECOM (MDS1 and EVI1 complex locus)	-0.804	inactive
87	SLAMF9 (SLAM family member 9)	0.234	inactive
88	ARHGEF28 (Rho guanine nucleotide exchange factor 28)	0.0595	inactive
89	TRIML2 (tripartite motif family like 2)	-0.946	inactive
90	HNMT (histamine N-methyltransferase)	-1.58	active
91	ZNF787 (zinc finger protein 787)	-0.818	inactive
92	POU5F1 (POU class 5 homeobox 1)	0.0496	inactive
93	KRT17 (keratin 17)	-0.0978	inactive
94	ZBTB32 (zinc finger and BTB domain containing 32)	0.748	inactive
95	RPH3AL (rabphilin 3A like (without C2 domains))	-0.674	inactive
96	KRTAP5-3 (keratin associated protein 5-3)	1.78	active
97	MAPDA (N6-Methyl-AMP deaminase)	1.22	active
98	SNRPG (small nuclear ribonucleoprotein polypeptide G)	-0.191	inactive
99	LSM7	0.227	inactive
100	ELF1 (E74 like ETS transcription factor 1)	0.239	inactive
101	ZC3H4 (zinc finger CCCH-type containing 4)	-0.399	inactive
102	FARP1 (FERM, ARH/RhoGEF and pleckstrin domain protein 1)	1.09	active
103	TTC29 (tetratricopeptide repeat domain 29)	-0.68	inactive
104	ERP29 (endoplasmic reticulum protein 29)	-1.78	active
105	CFC1 (cryptic, EGF-CFC family member 1)	0.239	inactive
106	ZNF277 (zinc finger protein 277)	-0.851	inactive
107	HELLS (helicase, lymphoid specific)	-1.51	active
108	CBARP (CACN subunit beta associated regulatory protein)	1.12	active
109	SPTBN1 (spectrin beta, non-erythrocytic 1)	1.74	active
110	GPATCH2L (G-patch domain containing 2 like)	-0.648	inactive
111	GCNT7 (glucosaminyl (N-acetyl) transferase family member 7)	0.0905	inactive
112	ATP11C (ATPase phospholipid transporting 11C (ATP11C blood group))	-1.21	active
113	ZIM2 (zinc finger imprinted 2)	-0.985	inactive
114	URM1 (ubiquitin related modifier 1)	-2.22	active
115	FGFR1OP2 (FGFR1 oncogene partner 2)	-2.1	active
116	POFUT4 (protein O-fucosyltransferase 4)	-0.276	inactive
117	BCL6 (BCL6 transcription repressor)	-0.883	inactive
118	QPCTL (glutaminyl-peptide cyclotransferase like)	-0.631	inactive
119	PIN4 (peptidylprolyl cis/trans isomerase, NIMA-interacting 4)	-3.02	active
120	OR4P4 (olfactory receptor family 4 subfamily P member 4)	0.981	inactive
121	CXADR (CXADR cell adhesion molecule)	-0.726	inactive
122	NANOS1 (nanos C2HC-type zinc finger 1)	-0.652	inactive
123	C11orf40 (chromosome 11 putative open reading frame 40)	-0.293	inactive
124	UGT2B11 (UDP glucuronosyltransferase family 2 member B11)	-0.966	inactive
125	PATL1 (PAT1 homolog 1, processing body mRNA decay factor)	-1.56	active
126	CCDC91 (coiled-coil domain containing 91)	1.4	active
127	E2F2 (E2F transcription factor 2)	-0.832	inactive
128	SMG7 (SMG7 nonsense mediated mRNA decay factor)	-0.862	inactive
129	AKR1A1 (aldo-keto reductase family 1 member A1)	0.5	inactive
130	OR5C1 (olfactory receptor family 5 subfamily C member 1)	0.428	inactive
131	NFKBIL1 (NFKB inhibitor like 1)	-1.96	active
132	ARHGAP9 (Rho GTPase activating protein 9)	-0.0229	inactive
133	PITRM1 (pitrilysin metallopeptidase 1)	0.515	inactive
134	PZP (PZP alpha-2-macroglobulin like)	-1.25	active
135	RPS28 (ribosomal protein S28)	-0.952	inactive
136	DKK3 (dickkopf Wnt signaling pathway inhibitor 3)	-0.539	inactive
137	RPS9 (ribosomal protein S9)	0.309	inactive
138	TP73 (tumor protein p73)	-1.54	active
139	PGAP1 (post-GPI attachment to proteins inositol deacylase 1)	1.71	active
140	DLGAP1 (DLG associated protein 1)	0.692	inactive
